Measured values: the supplement of paper PMC9931576
Human monoclonal antibodies against the spike receptor-binding domain (heavy:light variable regions). IC50 against pseudoviruses bearing the spike of naturally observed variants; lower = stronger; >10 µg/ml means not reached at the top dose. No active / inactive call. The stated detection limit is 0.0005 µg/ml; values near or below 0.001 µg/ml lie at the floor of the assay.

B1: BD55-6558 (protein)
chain 1: QVQLQQWGAGLLRPSETLSLTCTLSDGSFSGYYWNWVRQSPGKGLEWIGDIDLAGENYNPSLKGRVTMSIDASKNHFSLRLSSVTAADTGVYYCARAPNLGWFGPKQGAFDIWGLGTVVIVSS
chain 2: DIVMTQSPDSLAVSLGERATINCKSSQSLLYSSNNKNYLAWFQQKPGQPPNLLIYWASTRESGVPDRFSGSGSGTEFTLTISSLQAEDVAVYFCQQYYSPPLTFGGGTKVEIK
B2: BD55-1266 (protein)
chain 1: QLQLLQSGAEVKKPGSSVKVSCKASGGTFGSHTISWVRQAPGQGLEWMGGIIPVSGKPNYAQKFQGRVTITADESTTTSYMELRSLRSEDTAMYFCSRLDTSGWYTGDTFDLWGQGTMVTVSS
chain 2: DIQMTQSPASLSASVGDRVTITCRASQNIGIYLNWYQQKPGKAPKLLIYAAYSLQSGVPSRFSGSGSATEFTLTITSLQPDDFATYYCQQSYPAPPLTFGQGTRLEVK
B3: BD55-6551 (protein)
chain 1: QITLKESGPALVKPTQTLTLTCTFSGFSLNTDRVGVGWIRQPPGKALEWLALIYWDDDKRYSPSLKSRLTITKDTSKNQVVLTMTNMDPVDTATYYCAHRGKHGYSYGPGYNWFDPWGQGTLVSVSS
chain 2: QSVLTQPPSVSEAPRQRVTISCSGSSSNIGNNAVNWYQQVPGKAPKLLIYNDDLLPSGVSDRFSGSKSGTSASLAISGLQSEDEADYYCATWDDILNGPVFGGGTKLTVL
B4: BD55-6555 (protein)
chain 1: QVQLQESGPGLVKPSETLSLTCTVSNGSISSYYWSWIRQPPGKGLEWIGYIYFSGHTNYNPSLKSRVTLSVDTSKNQFSLKLSSVTAADTAVYYCAREGAGKTNHDFWSGYSYYYYHGMDVWGQGTTVTVSS
chain 2: QSVLTQPPSVSGAPGQRVTVSCTGSSSNIGAGYDVHWYQQLPGTAPKLLIYGNTNRPSGVPDRFSGSRSDTSASLAITGLQAEDEADYYCQSYDSSLSVRVFGGGTRLTVL
B5: BD55-6560 (protein)
chain 1: QVQLRESGPGLVKPSETLSLTCTVSGDSMSSYYWSWIRQSAGKGLEWIGRIHPSGATNHKSSLRGRVTMSVDTSKNQFSLQLRSVTAADTAVYYCARGGCSSTSCFGFYFYAMDVWGQGTTVTVSS
chain 2: DIQMTQSPSSLSASVGDRVTITCQASQDISNFLNWYQQRPGKAPKLLISAASNLETGVPSRFSGSGSGTDFTFTISSLLPEDFGTYYCQQYADLPLFGGGTKVE
B6: BD55-6540 (protein)
chain 1: QLQLQQSGPGLVKPSETLSLTCTVSGGSISSDYWTWIRQPPGKGLEWIGYLYYVGITNYNPSLKSRVTISLDTSKNQFSLTLSSVTAADTAVYFCARGRGRYLDDPYYYGMDVWGQGTTVTVSS
chain 2: QSVLTQPPSASGTPGQRVAIPCSGSTSNIGSNSVNWYQQVPGTAPKLLIYSNNERPSGVPDRFSGSKSGTSASLAISGLQSEDEADYYCASWDDSLDGRGVFGGGTRLTVL

Columns and labels:
Experiment in all cases: pseudovirus neutralization IC50; higher = weaker neutralization
[1] = biological target: SARS-CoV-2 Omicron BA.1 spike pseudovirus
Description: (§1)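 Single-round VSV luciferase pseudovirus mixed with antibody dilutions for 1 h and put on Huh-7 cells for about a day; IC50 from the dose curve.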

[2] = biological target: SARS-CoV-2 Omicron BA.2 spike pseudovirus
Description: as §1

[3] = biological target: SARS-CoV-2 Omicron BA.2.75 spike pseudovirus
Description: as §1

[4] = biological target: SARS-CoV-2 Omicron BA.5 spike pseudovirus
Description: as §1

[5] = biological target: SARS-CoV-2 Omicron BQ.1.1 spike pseudovirus
Description: as §1

[6] = biological target: SARS-CoV-2 Omicron XBB spike pseudovirus
Description: as §1

[7] = biological target: SARS-CoV-2 early D614G spike pseudovirus
Description: as §1

Binder | pseudovirus neutralization IC50 [1] [µg/mL] | pseudovirus neutralization IC50 [2] [µg/mL] | pseudovirus neutralization IC50 [3] [µg/mL] | pseudovirus neutralization IC50 [4] [µg/mL] | pseudovirus neutralization IC50 [5] [µg/mL] | pseudovirus neutralization IC50 [6] [µg/mL] | pseudovirus neutralization IC50 [7] [µg/mL]
B1 | > 10 | > 10 | > 10 | > 10 | > 10 | > 10 | > 10
B2 | 1.91 | 1.29 | 1.74 | 8.7 | > 10 | > 10 | 0.87
B3 | > 10 | > 10 | > 10 | > 10 | > 10 | > 10 | > 10
B4 | > 10 | > 10 | > 10 | > 10 | > 10 | > 10 | 1.16
B5 | > 10 | > 10 | > 10 | > 10 | > 10 | > 10 | > 10
B6 | > 10 | > 10 | > 10 | > 10 | > 10 | > 10 | > 10
